PubChem BioAssay AID504761 – Drosophila RNAi Screening Center | 2011

Purpose: 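Genome-wide fly cell screen for genes dengue virus requires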 (primary screen)
Cell system: D.Mel-2 cells from Drosophila
Knock-down reagent: long dsRNA against Drosophila genes
Challenge: infection with dengue virus type 2; dose and infection time not stated
Detection: 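Cells stained for dengue envelope protein and imaged; percent of infected cells per well on duplicate plates, ranked by infection, with stained nuclei counted for cell number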
Reading the numbers: infection score: higher = more virus-infected cells; cell count: higher = more cells in the well
Rule for the call: 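Very low infection ranking in both replicate wells (chance probability at most 0.065), then a retest showing infection dropped 1.5-fold or more at p below 0.05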
Calls: active = confirmed: knock-down lowers infection; inactive = not picked or not confirmed
The deposit covers about 22,000 reagents; below is an unselected part of those that have a named target and a result. Over the whole deposit, 116 (0.52%) are marked active. 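Calls depend on retest data that are not deposited; infection was ranked per plate without normalising between plates; the unit of the infection score is not given.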 The raw values are shown without normalisation. Not all columns of the deposit are shown. The record does not give: the amount of reagent, the time to read-out.

Against PIG-X [DRSC22721], the values are infection score, replicate 1 = 1.7; cell count, replicate 1 = 6893; inactive.
With knock-down of CG10208 [DRSC14211] the results were infection score, replicate 1 = 1.23; cell count, replicate 1 = 6012; inactive.
With knock-down of Ugt37E1 [DRSC02248], the record shows cell count, replicate 1 = 504; inactive.
After knock-down of Ugt37E1 [DRSC24769] the results were infection score, replicate 1 = 2.38; cell count, replicate 1 = 5971; inactive.
For tin [DRSC17083], the values are infection score, replicate 1 = 11.3; cell count, replicate 1 = 4370; inactive.
Knock-down of tin [DRSC23248] resulted in: infection score, replicate 1 = 1.91; cell count, replicate 1 = 7018; inactive.
After knock-down of tin [DRSC28260], the record shows infection score, replicate 1 = 12.6; cell count, replicate 1 = 6047; inactive.
Against Mtr3 [DRSC10953], the values are infection score, replicate 1 = 7.52; cell count, replicate 1 = 5852; inactive.
For Mtr3 [DRSC26956], the values are infection score, replicate 1 = 5.66; cell count, replicate 1 = 5762; inactive.
Depletion of Hmu [DRSC16705] resulted in: infection score, replicate 1 = 1.81; cell count, replicate 1 = 883; inactive.
Depletion of Hmu [DRSC28454] resulted in: infection score, replicate 1 = 3.46; cell count, replicate 1 = 665; inactive.
CG4781 [DRSC04488] showed infection score, replicate 1 = 9.03; cell count, replicate 1 = 6082; inactive.
With knock-down of sa [DRSC11649], the screen gave infection score, replicate 1 = 5.54; cell count, replicate 1 = 6354; inactive.
For CG9399 [DRSC16488], the entry reads infection score, replicate 1 = 7.58; cell count, replicate 1 = 6586; inactive.

Part of the list above in another layout:
{"gene knocked down":"tin","dsRNA":"DRSC23248","infection score, replicate 1":1.91,"cell count, replicate 1":7018,"call":"inactive"}
{"gene knocked down":"tin","dsRNA":"DRSC28260","infection score, replicate 1":12.6,"cell count, replicate 1":6047,"call":"inactive"}
